Test results: article PMC6753193 (Frontiers in Microbiology, 2019)

Protein sequences, listed by entry. Tags and fused reporters are not part of them. Residues count along the entry.
UniProt P62136, 7-300 limits assumed: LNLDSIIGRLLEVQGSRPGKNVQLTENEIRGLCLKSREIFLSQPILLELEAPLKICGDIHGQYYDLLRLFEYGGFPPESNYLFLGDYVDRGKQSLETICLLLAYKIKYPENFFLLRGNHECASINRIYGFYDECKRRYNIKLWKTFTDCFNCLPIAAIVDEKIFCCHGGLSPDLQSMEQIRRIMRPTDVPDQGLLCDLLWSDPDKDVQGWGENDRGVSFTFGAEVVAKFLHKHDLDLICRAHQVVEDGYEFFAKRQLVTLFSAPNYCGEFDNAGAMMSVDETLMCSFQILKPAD

Molecular target: WT PP1 (Homo sapiens, UniProt P62136)
Assay: biochemical
Type: binding

For `CC[C@H](C)[C@H](NC(=O)[C@H](Cc1ccccc1)NC(=O)[C@H](CS)NC(=O)[C@@H](NC(=O)[C@H](CCC(N)=O)NC(=O)[C@H](CS)NC(=O)[C@H](Cc1c[nH]cn1)NC(=O)[C@H](Cc1ccccc1)NC(=O)[C@H](CS)NC(=O)[C@H](CS)NC(=O)[C@H](CCCCN)NC(=O)[C@H](CCCCN)NC(=O)[C@H](CCCNC(=N)N)NC(=O)[C@H](CC(C)C)NC(=O)[C@@H]1CCCN1C(=O)[C@H](CO)NC(=O)[C@H](CO)NC(=O)[C@@H]1CCCN1C(=O)[C@H](Cc1ccccc1)NC(=O)[C@H](CCCCN)NC(=O)[C@H](Cc1ccc(O)cc1)NC(=O)[C@@H]1CCCN1C(=O)[C@H](COP(=O)(O)O)NC(=O)[C@H](CCCNC(=N)N)NC(=O)[C@@H]1CCCN1C(=O)[C@@H](NC(=O)[C@@H](N)Cc1c[nH]cn1)[C@@H](C)CC)C(C)C)C(=O)N[C@H](C(=O)N[C@@H](CCCCN)C(=O)O)[C@@H](C)O` [pRb-Tat, reference compound], the Kd was 155 nM, the kd was 0.003941 s⁻¹ and the kon (pH 7.4, read-out: ka) was 25400 M⁻¹ s⁻¹.
